Assay results as given in article PMC7886143, “A redox-active crosslinker reveals an essential and inhibitable oxidative folding network in the endoplasmic reticulum of malaria parasites” (2021).

Experiments:
[1] = target: PfPDI8 (Plasmodium falciparum, UniProt C0H4Y6); test: covalent crosslinking in parasites, anti-V5 western blot; settings: bifunctional crosslinker, 3 mM, 1x PBS, 30 min, 37 °C
[2] = target: PfJ2 (Plasmodium falciparum, UniProt Q8IIR6); test: covalent crosslinking in parasites, anti-HA western blot; IP and MS/MS; settings: bifunctional crosslinker, 3 mM, 1x PBS, 30 min, 37 °C

## C=CS(=O)(=O)C=C
[1]
  covalent crosslinking in parasites, anti-V5 western blot: Several high molecular weight bands containing PfPDI8 appear following DVSF treatment
[2]
  covalent crosslinking in parasites, anti-HA western blot; IP and MS/MS: the addition of DVSF resulted in additional bands containing PfJ2 to appear
